A mixed list of measured activities; the numbers were collected in NIAID ChemDB.

Common to all: growth or infection tests; species: Mycobacterium tuberculosis

MIC bound: limit read from a one-dose screen.

smiles | strain | tested at | measure | method | changes | result
O=C(NCc1ccc(N2CCN(S(=O)(=O)C(F)(F)F)C=N2)c(F)c1)c1c(C(F)F)nc2ccc(Cl)cn12 | - | - | EC50 | GFP | - | 0.0041 µM
CC1=C(C(=O)Nc2ccccc2Cl)C(c2ccc(N(C)C)cc2)C(C(=O)Nc2ccccc2Cl)=C(C)N1 | H37Rv | - | MIC | - | - | >12.5 µg/mL
COc1cc2c[n+](C)c3c4cc5c(cc4ccc3c2cc1OC)OCO5 | H37Rv | - | MIC | BACTEC | - | <12.5 µg/mL
Cc1c(N2CCN(C(=O)C3COc4ccccc4O3)CC2)c([N+](=O)[O-])cc2c(=O)c(C(=O)O)cn(C3CC3)c12 | H37Rv | - | MIC | - | - | 2.92 µM
Cc1ccccc1OC/C(N)=N\NC(=O)c1ccncc1 | ATCC 35820 (streptomycin-resistant) | - | MIC | - | - | 25 µg/mL
CC[C@H]1OC(=O)[C@H](C)[C@@H](O[C@H]2C[C@@](C)(OC)[C@@H](O)[C@H](C)O2)[C@H](C)[C@@H](O[C@@H]2O[C@H](C)C[C@H](N(C)C)[C@H]2O)[C@](C)(OC)C[C@@H](C)C(=O)[C@H](C)[C@@H](O)[C@]1(C)O | ATCC 35823 | - | MBC | - | - | >8 µg/mL
C[C@]1(COc2ccc(N3CCC(OC(=O)Nc4ccc(Cl)cc4)CC3)cc2)Cn2cc([N+](=O)[O-])nc2O1 | H37Rv | - | MIC | - | - | 0.003 µg/mL
Cc1cc(C(=O)C(C#N)=Nc2ccc(N(C)C)cc2)c(CN2C(=O)c3ccccc3C2=O)c(=O)n1C | H37Rv | 6.25 µg/mL | inhibition | resazurin | - | 40%
CCC1=C(C(=O)NCc2cc(F)c(N3CCN(S(=O)(=O)C(F)(F)F)C=N3)c(F)c2)C2C=C(Cl)C=NC2=N1 | - | - | EC50 | GFP | - | 0.005 µM
CC1CN(c2cc3c(cc2F)c(=O)c(C(=O)O)cn3-c2ccc(F)cc2F)CCN1 | DRUG-SUS | - | MIC50 | - | - | 1 µg/mL
CC1=NN(c2ccc(CNC(=O)c3c(C(F)(F)F)nc4ccccn34)cc2)CCN1S(=O)(=O)C(F)(F)F | - | - | EC50 | GFP | - | 0.013 µM
Nc1ncc2nc3c4ccccc4c(=O)cc-3oc2n1 | H37Rv | - | MIC bound | BACTEC | - | >12.5 µg/mL
CC1=C(C(=O)Nc2ccc(F)c(Cl)c2)C(c2ccc(F)cc2)C(C(=O)Nc2ccc(F)c(Cl)c2)=C(C)N1 | H37Rv | - | MIC | - | - | >6.25 µg/mL
Nc1nc(N)c2nc3c(nc2n1)CCCC3 | H37Rv | - | MIC bound | BACTEC | - | >12.5 µg/mL
O=C1CSC(c2ccccc2Cl)N1NC1=Nc2ccccc2Sc2ccccc21 | H37Rv | - | MIC | broth dilution | - | 250 µg/mL
N#C/C(=C\c1ccc(C(F)(F)F)cc1)n1nnc2ccccc21 | - | 12.5 µg/mL | inhibition | - | - | 82%
CC1=C(C(=O)Nc2cc(C)ccc2C)C(c2cccc([N+](=O)[O-])c2)C(C(=O)Nc2cc(C)ccc2C)=C(C)N1 | H37Rv | - | MIC | - | - | >6.25 µg/mL
CC(=O)NC[C@H]1CN(c2ccc(N3CCOCC3)c(F)c2)C(=O)O1 | Clinical isolate 109 | - | MIC | resazurin | INH RIF resistant | 0.25 µg/mL
O=C1NC(C2CCC3CN32)C(=O)NC1C1CCC2CN21 | H37Rv | - | MIC bound | BACTEC | - | >12.5 µg/mL
C/C=C1\C(=O)O[C@]23C=C[C@@H]4C(C(=O)OC)=CO[C@H](O[C@@H]12)[C@@H]43 | H37Rv | - | MBC | MTT | - | 4.1 µg/mL
COc1ccc(C2C3CCCC(C(c4ccc(OC)cc4)N2C)C32NC(=O)NC2=O)cc1 | H37Rv | 12.5 µg/mL | inhibition | BACTEC | - | 36%
COc1cc2c(c3c1c[n+](C)c1c4cc5c(cc4ccc31)OCO5)OCO2 | H37Rv | - | MIC | BACTEC | - | >12.5 µg/mL
N#C/C(=C\c1ccc(F)cc1)n1nc2ccccc2n1 | - | 12.5 µg/mL | inhibition | - | - | 0%
O=c1oc2cc(O)ccc2c2oc3cc(O)ccc3c12 | H37Rv | - | MIC bound | BACTEC | - | >128 µg/mL
C[C@]1(COc2ccc(N3CCC(Oc4ccc(OC(F)(F)F)cc4)CC3)nc2)Cn2cc([N+](=O)[O-])nc2O1 | H37Rv | - | MIC | - | - | 0.012 µg/mL
CCc1nc2c(F)cc(C)cn2c1C(=O)NCc1ccc(N2CCN(S(=O)(=O)C(F)(F)F)C=N2)c(F)c1 | - | - | EC50 | GFP | - | 0.00039 µM
CC1=C(C(=O)Nc2cccc(Cl)c2)C(c2ccccc2)C(C(=O)Nc2cccc(Cl)c2)=C(C)N1 | H37Rv | - | MIC | - | - | >12.5 µg/mL
C[C@]1(COc2ccc(N3CCC(COCc4ccc(F)cc4Cl)CC3)cc2)Cn2cc([N+](=O)[O-])nc2O1 | H37Rv | - | MIC | - | - | 0.024 µg/mL
O=C(N/N=C/c1cccs1)c1ccc(F)cc1 | H37Rv | - | EC50 | - | - | >6.25 µg/mL
N[C@@H]1CONC1=O | 90-0201 (drug-susceptible) | - | MIC | - | - | 50 µg/mL
CSc1cc(=O)n2c3ccccc3c3ccnc1c32 | H37Rv | - | MIC bound | BACTEC | - | >12.8 µg/mL
CCc1nc2ncccn2c1C(=O)NCc1ccc(N2CCN(S(=O)(=O)C(F)(F)F)C=N2)cc1 | - | - | EC50 | GFP | - | 0.079 µM
CC(=O)N=C1C=C(NC(C)=O)C(=O)c2ccccc21 | H37Rv | - | MIC bound | BACTEC | - | ≤12.5 µg/mL
O=C1[C@H](Cl)[C@@H](c2ccc(F)cc2)N1NC1=Nc2ccccc2Sc2ccccc21 | H37Rv | - | MIC | broth dilution | - | 1000 µg/mL
Cc1c(N2CC(C)OC(C)C2)c([N+](=O)[O-])cc2c(=O)c(C(=O)O)cn(C(C)(C)C)c12 | H37Rv | - | MIC | - | - | >29.94 µM
O=c1c2ccccc2nc2ccc(Cl)nn12 | H37Rv | - | MIC bound | resazurin | - | >6.25 µg/mL
N/C(COc1cccc(Cl)c1)=N/NC(=O)c1ccncc1 | H37Rv | - | MIC | - | - | 3.12 µg/mL
Cc1ccc(/C=C(\C#N)n2nc3ccccc3n2)cc1 | - | 12.5 µg/mL | inhibition | - | - | 31%
Cc1coc(NS(=O)(=O)c2ccc(N=Nc3ccc(O)c4ncccc34)cc2)c1C | H37Rv | - | MIC bound | BACTEC | - | >12.5 µg/mL
O=C(N/N=C/c1ccc([N+](=O)[O-])s1)c1ccccc1 | H37Rv | - | EC50 | - | - | <6.25 µg/mL
N#C/C(=C\c1ccccc1)n1nnc2ccccc21 | - | - | EC50 | - | - | 2 µg/mL
Cc1cc2c(cc1C)NC1=C(N2)OC(c2c3ccccc3cc3ccccc23)C1=O | H37Rv | 12.5 µg/mL | inhibition | BACTEC | - | -18%
CCCCCc1cc(OC)c2ccccc2n1 | MT6 | - | MIC | - | - | 21 µg/mL
COc1ccccc1C1C(C(=O)Nc2ccccc2Cl)=C(C)NC(C)=C1C(=O)Nc1ccccc1Cl | H37Rv | - | MIC | - | - | >12.5 µg/mL
NC1CCN(c2c(F)cc3c(=O)c(C(=O)O)cn(C4CC4)c3c2Cl)C1 | DRUG-SUS | - | MIC50 | - | - | 0.125 µg/mL
N#C/C(=C\c1ccc(F)cc1)n1nnc2ccccc21 | - | - | EC50 | - | - | >12.5 µg/mL
CN1c2ccccc2CCC1CCc1ccc2c(c1)OCO2 | MT3 | - | MIC | - | - | >100 µg/mL
Cc1cccc(/C=N/NC(=S)N(C)C)n1.[Cl][Cu][Cl] | R506 | - | MIC90 | - | - | 0.78 µM
CO[C@H]1/C=C/O[C@@]2(C)Oc3c(C)c(O)c4c(O)c(c(/C=N/N5CCN(C6CCCC6)CC5)c(O)c4c3C2=O)NC(=O)/C(C)=C\C=C\[C@H](C)[C@H](O)[C@@H](C)[C@@H](O)[C@@H](C)[C@H](OC(C)=O)[C@@H]1C | H37Rv (p-aminosalicylate-resistant) | - | MIC | - | - | 1.25 µg/mL
COC1=C(c2c[nH]c3ccc(CC=C(C)C)cc23)C(=O)C(OC)=C(c2c[nH]c3ccc(CC=C(C)C)cc23)C1=O | H37Rv | 12.5 µg/mL | inhibition | BACTEC | - | -25%
CC[C@@H](CO)NCCN[C@@H](CC)CO | 90-0240 (drug-susceptible) | - | MIC | - | - | 1 µg/mL
C[n+]1cc2c3c(ccc2c2ccc4cc5c(cc4c21)OCO5)OCO3 | H37Rv | 12.5 µg/mL | inhibition | BACTEC | - | 94%
Cc1c(N2CCC(n3c(=O)[nH]c4cc(Cl)ccc43)CC2)c([N+](=O)[O-])cc2c(=O)c(C(=O)O)cn(C3CC3)c12 | H37Rv | - | MIC | - | - | 2.89 µM
Cc1cccc(OC/C(N)=N\NC(=O)c2ccncc2)c1 | 16 isolates | - | MIC50 | - | - | 12.5 µg/mL
O=NNc1ccc([N+](=O)[O-])cn1 | H37Rv | 12.5 µg/mL | inhibition | BACTEC | - | -2%
O=C1CSC(c2ccccc2[N+](=O)[O-])N1NC1=Nc2ccccc2Sc2ccccc21 | H37Rv | - | MIC | broth dilution | - | 125 µg/mL
CC(=O)C1C(=O)OC(C)=C(C(=O)c2ccccc2)C1=O | H37Rv | - | MIC bound | BACTEC | - | >12.5 µg/mL
COc1ccc([C@@H]2[C@@H](Cl)C(=O)N2NC2=Nc3ccccc3Sc3ccccc32)cc1 | H37Rv | - | MIC | broth dilution | - | 1000 µg/mL
Cc1c(N2CCN(Cc3ccc4c(c3)OCO4)CC2)c([N+](=O)[O-])cc2c(=O)c(C(=O)O)cn(-c3ccc(F)cc3F)c12 | H37Rv | - | MIC | - | - | 21.61 µM
O=C(O)CCC(=O)NC1C(NNC(=O)c2cccnc2)OC(CO)C(O)C1O | H37Rv | - | MIC bound | BACTEC | - | >12.5 µg/mL
Cc1c(N2CCN(C)C(c3ccccc3)C2)c([N+](=O)[O-])cc2c(=O)c(C(=O)O)cn(-c3ccc(F)cc3F)c12 | H37Rv | - | MIC | - | - | >23.39 µM
CC1COc2c(N3CCN(C)CC3)c(F)cc3c(=O)c(C(=O)O)cn1c23 | 90-0240 (drug-susceptible) | - | MIC | - | - | 0.5 µg/mL
Cc1c(N2CCC3(CC2)OCCO3)c([N+](=O)[O-])cc2c(=O)c(C(=O)O)cn(-c3ccc(F)cc3F)c12 | H37Rv | - | MIC | - | - | 3.11 µM
CC[C@H]1OC(=O)[C@H](C)[C@@H](O[C@H]2C[C@@](C)(OC)[C@@H](O)[C@H](C)O2)[C@H](C)[C@@H](O[C@@H]2O[C@H](C)C[C@H](N(C)C)[C@H]2O)[C@](C)(OC)C[C@@H](C)C(=O)[C@H](C)[C@@H](O)[C@]1(C)O | 90-0240 (drug-susceptible) | - | MIC | - | - | 4 µg/mL
Cc1ccc(/C=C(\C#N)n2nnc3ccccc32)cc1 | - | - | EC50 | - | - | <12.5 µg/mL
CC(C)(CO)NCC(C)(C)NC(Cc1ccccc1)c1ccccc1.Cl.Cl | H37Rv | 12.8 µg/mL | inhibition | BACTEC | - | 22%
N#C/C(=C\c1ccc(C(F)(F)F)cc1)n1nc2ccccc2n1 | - | - | EC50 | - | - | >12.5 µg/mL
O=C(N/N=C/c1ccc(Cl)cc1)c1ccc(F)cc1 | H37Rv | - | MIC | - | - | >6.25 µg/mL
CCC(=O)NN1C(=O)c2ccccc2C1=O | H37Rv | - | MIC bound | BACTEC | - | >12.5 µg/mL
COc1cc2ccc3c4c(OC)cc5c(c4c[n+](C)c3c2cc1OC)OCO5 | H37Rv | - | MIC | BACTEC | - | >12.5 µg/mL
CC(C)(C)c1ccc(NS(=O)(=O)c2ccc(N)cc2)cc1Br | H37Rv | 12.5 µg/mL | inhibition | BACTEC | - | 19%
C[C@@H]1CN(c2c(F)c(N)c3c(=O)c(C(=O)O)cn(C4CC4)c3c2F)C[C@H](C)N1 | H37Rv | - | MIC | - | - | 0.06 µg/mL
CCc1cc(C(N)=S)ccn1 | 90-0240 (drug-susceptible) | - | MIC | - | - | 0.5 µg/mL
CN(C)c1ccc(/C=C/C/C=N/NC(=O)c2ccc(F)cc2)cc1 | H37Rv | - | MIC | - | - | >6.25 µg/mL
CCOC(=O)C(=CNC(=S)N=Nc1c(O)[nH]c2ccccc12)C(=O)OCC | H37Rv | 6.25 µg/mL | inhibition | BACTEC | - | 0%
NC[C@H]1O[C@H](O[C@H]2[C@H](O)[C@@H](O[C@H]3O[C@H](CO)[C@@H](O)[C@H](N)[C@H]3O)[C@H](N)C[C@@H]2N)[C@H](O)[C@@H](O)[C@@H]1O | 90-0240 (drug-susceptible) | - | MIC | - | - | 2 µg/mL
C[C@]1(COc2ccc(N3CCN(Cc4ccc(N5CCC(Oc6ccc(OC(F)(F)F)cc6)CC5)cc4)CC3)cc2)Cn2cc([N+](=O)[O-])nc2O1 | H37Rv | - | MIC | - | - | 0.012 µg/mL
CC12C=C3C4(CCCC3(O1)c1ccccc12)OCCO4 | H37Rv | - | MIC bound | BACTEC | - | >12.5 µg/mL
COc1cccc(NC(=O)C2=C(C)NC(C)=C(C(=O)Nc3cccc(OC)c3)C2c2ccc(O)cc2)c1 | H37Rv | - | MIC | - | - | >6.25 µg/mL

6 of the rows above, restated:

CC1COc2c(N3CCN(C)CC3)c(F)cc3c(=O)c(C(=O)O)cn1c23 ; strain: 90-0240 (drug-susceptible) ; measure: MIC ; result: 0.5 µg/mL
CC[C@@H](CO)NCCN[C@@H](CC)CO ; strain: 90-0240 (drug-susceptible) ; measure: MIC ; result: 1 µg/mL
N#C/C(=C\c1ccc(F)cc1)n1nc2ccccc2n1 ; tested at: 12.5 µg/mL ; measure: inhibition ; result: 0%
CC1=C(C(=O)Nc2ccc(F)c(Cl)c2)C(c2ccc(F)cc2)C(C(=O)Nc2ccc(F)c(Cl)c2)=C(C)N1 ; strain: H37Rv ; measure: MIC ; result: >6.25 µg/mL
N#C/C(=C\c1ccc(C(F)(F)F)cc1)n1nc2ccccc2n1 ; measure: EC50 ; result: >12.5 µg/mL
CC(=O)N=C1C=C(NC(C)=O)C(=O)c2ccccc21 ; strain: H37Rv ; measure: MIC bound ; method: BACTEC ; result: ≤12.5 µg/mL

Blank or dashed fields: not listed here. MIC50, MIC90 and the like: level of inhibition, or share of isolates inhibited. ECn is the concentration giving n% inhibition of infection, replication or growth. Inhibition is in % at the dose shown (toxicity tests: loss of growth or viability). Lines come from different laboratories, so protocols vary.